Patent US20030220338A1, “Fungal efflux pump inhibitors” (priority 2001, published 2003)

What was measured:
[1] = system: C. glabrata YEM19 (over-expressing the CgCDR1 and CgCDR2 pumps); assay: Checkerboard / broth microdilution assay, potentiation of fluconazole vs. C. glabrata; details: for MIC: Nakaseomyces glabratus, 48 h; for MPC8: in combination with fluconazole, strain YEM19
[2] = system: Candida albicans YEM15 (over-expressing the CDR1 and CDR2 pumps); assay: Checkerboard / broth microdilution assay, potentiation of fluconazole vs. C. albicans; details: for MIC: Candida albicans, 48 h; for MPC8 = concentration of efflux pump inhibitor necessary to reduce the fluconazole MIC 8-fold: in combination with fluconazole, strain YEM15

Row | SMILES | MIC [1] | MPC8 [1] | MIC [2] | MPC8 = concentration of efflux pump inhibitor necessary to reduce the fluconazole MIC 8-fold [2]
1 | COC(=O)N(C)CC(=O)N1CCN(n2c(C(C)N(C(=O)Nc3ccc(F)cc3)c3ccc(OC)cc3OC)nc3ccccc3c2=O)CC1 (centres unmarked) [Compound 192] | > 32 µg/mL | 0.5 µg/mL | > 32 µg/mL | 1 µg/mL
2 | COc1ccc(N(C(=O)Nc2ccccc2)C(C)c2nc3ccccc3c(=O)n2N2CCN(S(C)(=O)=O)CC2)c(OC)c1 (centres unmarked) [Compound 126] | > 32 µg/mL | 4 µg/mL | > 32 µg/mL | 0.125 µg/mL
3 | COc1ccc(N(C(=O)Nc2ccc(F)cc2)C(C)c2nc3ccccc3c(=O)n2C2CCNCC2)c(OC)c1 (centres unmarked) [Compound 195] | > 32 µg/mL | 32 µg/mL | > 32 µg/mL | 32 µg/mL
4 | COc1ccc(N(C(=O)Nc2ccc(F)cc2)C(C)c2nc3ccccc3c(=O)n2N2CCN(CC(=O)N3CCOCC3)CC2)c(OC)c1 (centres unmarked) [Compound 112] | > 32 µg/mL | 0.25 µg/mL | > 32 µg/mL | 0.25 µg/mL
5 | COc1ccc(N(C(=O)Nc2ccc(F)cc2)C(C)c2nc3ccccc3c(=O)n2N2CCN(C(=O)OCCN3C(=O)CCC3=O)CC2)c(OC)c1 (centres unmarked) [Compound 108] | > 32 µg/mL | 0.5 µg/mL | > 32 µg/mL | 2 µg/mL
6 | COc1ccc(N(C(=O)Nc2ccc(F)cc2)C(C)c2nc3ccc(Cl)cc3c(=O)n2N2CCN(C)CC2)c(OC)c1 (centres unmarked) [Compound 66] | > 32 µg/mL | 2 µg/mL | > 32 µg/mL | 0.25 µg/mL
7 | COc1ccc(N(C(=O)Nc2ccc(F)cc2)C(C)c2nc3ccccc3c(=O)n2N2CCN(C(=O)CN3CCCC3)CC2)c(OC)c1 (centres unmarked) [Compound 143] | > 32 µg/mL | 1 µg/mL | > 32 µg/mL | 4 µg/mL
8 | COc1ccc(N(C(=O)Nc2ccc(F)cc2)C(C)c2nc3cccc(F)c3c(=O)n2N2CCN(C)CC2)cc1OC (centres unmarked) [Compound 63] | > 32 µg/mL | 8 µg/mL | > 32 µg/mL | 8 µg/mL
9 | COc1ccc(N(C(=O)Nc2ccc(F)cc2)C(C)c2nc3ccccc3c(=O)n2N2CCN(C(=O)CN3CCN(C=O)CC3)CC2)c(OC)c1 (centres unmarked) [Compound 191] | > 32 µg/mL | 2 µg/mL | > 32 µg/mL | 8 µg/mL
10 | COc1ccc(N(C(=O)Nc2ccc(F)cc2)C(C)c2nc3ccccc3c(=O)n2N2CCN(S(=O)(=O)CCN3CCCC3)CC2)c(OC)c1 (centres unmarked) [Compound 194] | > 32 µg/mL | 2 µg/mL | > 32 µg/mL | 0.5 µg/mL
11 | COc1ccc(N(C(=O)Nc2ccc(F)cc2)C(C)c2nc3ccccc3c(=O)n2N2CCN(C3=NCCO3)CC2)c(OC)c1 (centres unmarked) [Compound 173] | > 32 µg/mL | 2 µg/mL | > 32 µg/mL | 16 µg/mL
12 | COc1ccc(N(C(=O)Nc2ccc(F)cc2)C(C)c2nc3ccc(C)cc3c(=O)n2N2CCN(C)CC2)c(OC)c1 (centres unmarked) [Compound 70] | > 32 µg/mL | 4 µg/mL | > 32 µg/mL | 0.5 µg/mL
13 | C=CS(=O)(=O)N1CCN(n2c(C(C)N(C(=O)Nc3ccc(F)cc3)c3ccc(OC)cc3OC)nc3ccccc3c2=O)CC1 (centres unmarked) [Compound 175] | > 32 µg/mL | 1 µg/mL | > 32 µg/mL | ≦0.03 μg/ml
14 | COc1ccc(N(C(=O)Nc2ccccc2)C(C)c2nc3ccccc3c(=O)n2N2CCNCC2)c(OC)c1 (centres unmarked) [Compound 128] | > 32 µg/mL | 32 µg/mL | > 32 µg/mL | 32 µg/mL
